A mixed list of measured activities; the numbers were collected in NIAID ChemDB.

Shared fields: whole-cell or culture tests; species: HIV-1; cell line: PBMC; endpoint: EC90

ECn: concentration that inhibits the pathogen or its effect by n%. An empty or dashed field is not shown. Conditions beyond the fields shown may differ between rows.

{"smiles": "CC(C)(C)OC(=O)N1[C@H](CO)CC(F)(F)[C@H]1n1ccc(=O)[nH]c1=O", "strain": "LAI", "read by": "RT activity", "value": ">100 µM"}
{"smiles": "O=C(CN1c2c(-c3ccccc3)n[nH]c2-c2ccccc2S1(=O)=O)N/N=C/c1ccc([N+](=O)[O-])cc1", "value": ">100 µM"}
{"smiles": "Nc1nc(N)c2ncn([C@H]3CO[C@@H](CO)O3)c2n1", "strain": "LAI", "read by": "RT activity", "value": "2.4 µM"}
{"smiles": "COC(=O)[C@H](C)NP(=O)(OC[C@@H]1OC[C@H](n2cc(C)c(=O)[nH]c2=O)O1)Oc1ccc(F)cc1", "strain": "LAI", "changes": "RT-M184V", "read by": "RT activity", "value": "7.3 µM"}
{"smiles": "CCCCCCCCCC(=O)Nc1nc(N)nc2c1ncn2[C@H]1CO[C@@H](COP(=O)(N[C@@H](C)C(=O)OCC)Oc2ccccc2)O1", "strain": "LAV-1", "read by": "RT activity", "value": "9.4 µM"}
{"smiles": "CN1c2c(-c3ccccc3)nn(CC(=O)N/N=C/c3ccccc3F)c2-c2ccccc2S1(=O)=O", "strain": "LAV-1", "read by": "RT activity", "value": ">100 µM"}
{"smiles": "CN(C)c1ccc(/C=N/NC(=O)CN2c3c(-c4ccccc4)n[nH]c3-c3ccccc3S2(=O)=O)cc1", "value": ">100 µM"}
{"smiles": "CCCCCCCC(=O)Nc1nc(N)nc2c1ncn2[C@H]1CO[C@@H](COP(=O)(N[C@@H](C)C(=O)OCC)Oc2ccccc2)O1", "strain": "LAV-1", "read by": "RT activity", "value": "6.6 µM"}
{"smiles": "CC(C)(C)OC(=O)N1[C@H](CO)CC(F)(F)[C@H]1n1cnc2c(Cl)ncnc21", "strain": "LAI", "read by": "RT activity", "value": ">100 µM"}
{"smiles": "O=c1ccn([C@H]2S[C@@H](CO)[C@@H]2CO)c(=O)[nH]1", "strain": "xxBRU", "read by": "RT activity", "value": ">100 µM"}
{"smiles": "Nc1nc(=O)n([C@H]2C=C[C@@H](CO)O2)cc1F", "strain": "RT-M184V XM-M184V", "changes": "RT-M184V", "read by": "p24", "value": "1.3 µM"}
{"smiles": "Nc1nc(=O)n([C@@H]2S[C@H](CO)[C@H]2CO)cc1Cl", "strain": "xxBRU", "read by": "RT activity", "value": ">100 µM"}
{"smiles": "COc1ccnc2[nH]cc(C(=O)C(=O)N3CCN(C(=O)c4ccccc4)C[C@H]3C)c12", "strain": "LAI", "read by": "RT activity", "value": ">125 µM"}
{"smiles": "COc1ccc(C(=O)OCc2nc3ccccc3nc2C)c(OC)c1OC", "strain": "89BZ167", "read by": "RT activity", "value": ">100 µM"}
{"smiles": "CCOC(=O)[C@H](C)NP(=O)(OC[C@@H]1OC[C@H](n2cnc3c(Cl)nc(N)nc32)O1)Oc1ccccc1", "strain": "LAI", "read by": "RT activity", "value": "0.02 µM"}
{"smiles": "CC(C)(C)OC(=O)N1[C@H](CO)CC(F)(F)[C@H]1n1cc(F)c(=O)[nH]c1=O", "strain": "LAI", "read by": "RT activity", "value": "75.6 µM"}
{"smiles": "CN1c2c(-c3ccccc3)nn(CC(=O)N/N=C/c3ccc(Br)cc3)c2-c2ccccc2S1(=O)=O", "strain": "LAV-1", "read by": "RT activity", "value": ">100 µM"}
{"smiles": "O=C(CN1c2c(-c3ccccc3)n[nH]c2-c2ccccc2S1(=O)=O)N/N=C/c1ccc(Cl)cc1Cl", "value": "95.4 µM"}
{"smiles": "C[C@@]1(F)[C@H](O)[C@@H](CO)O[C@@H]1n1ccc2c(N)nc(N)nc21", "value": ">100 µM"}
{"smiles": "O=C(CN1c2c(-c3ccccc3)n[nH]c2-c2ccccc2S1(=O)=O)N/N=C/c1ccccc1F", "value": ">100 µM"}
{"smiles": "C[C@@]1(F)[C@H](O)[C@@H](CO)O[C@@H]1n1cc(Cl)c2c(N)ncnc21", "value": ">100 µM"}
{"smiles": "CC(C)(C)OC(=O)N1[C@H](CO)CC(F)(F)[C@H]1n1cnc2ncnc(N)c21", "strain": "LAI", "read by": "RT activity", "value": ">100 µM"}
{"smiles": "COc1ccc(/C=N/NC(=O)Cn2nc(-c3ccccc3)c3c2-c2ccccc2S(=O)(=O)N3C)c(OC)c1OC", "strain": "LAV-1", "read by": "RT activity", "value": ">100 µM"}
{"smiles": "C[C@@]1(F)[C@H](O)[C@@H](CO)O[C@@H]1n1cc(I)c2c(N)ncnc21", "value": ">100 µM"}
{"smiles": "COc1cc(/C=N/NC(=O)Cn2nc(-c3ccccc3)c3c2-c2ccccc2S(=O)(=O)N3C)cc(OC)c1OC", "strain": "LAV-1", "read by": "RT activity", "value": ">100 µM"}
{"smiles": "COC(=O)[C@H](C)NP(=O)(OC[C@@H]1OC[C@H](n2cc(C)c(=O)[nH]c2=O)O1)Oc1ccc(Br)cc1", "strain": "LAI", "changes": "RT-M184V", "read by": "RT activity", "value": "1.4 µM"}
{"smiles": "O=C(CN1c2c(-c3ccccc3)n[nH]c2-c2ccccc2S1(=O)=O)N/N=C/c1ccc(Cl)cc1", "value": "29.7 µM"}
{"smiles": "COC(=O)/C=C/c1cn([C@H]2O[C@H](CO)[C@@H](O)[C@@]2(C)F)c2ncnc(N)c12", "value": "9.5 µM"}
{"smiles": "COc1cc(C(=O)OCc2nc3ccccc3nc2C)cc(OC)c1OC", "strain": "BaL", "read by": "RT activity", "value": ">100 µM"}
{"smiles": "CCOC(=O)[C@H](C)NP(=O)(OC[C@@H]1OC[C@H](n2cnc3c(N)nc(N)nc32)O1)Oc1ccccc1", "strain": "LAV-1", "read by": "RT activity", "value": "1.5 µM"}
{"smiles": "CN1c2c(-c3ccccc3)nn(CC(=O)N/N=C/c3ccc([N+](=O)[O-])cc3)c2-c2ccccc2S1(=O)=O", "strain": "LAV-1", "read by": "RT activity", "value": ">100 µM"}
{"smiles": "CC(C)(C)OC(=O)N1[C@H](CO)CC(F)(F)[C@@H]1n1cc(F)c(=O)[nH]c1=O", "strain": "LAI", "value": "90.8 µM"}
{"smiles": "C[C@@]1(F)[C@H](O)[C@@H](CO)O[C@H]1n1cc(Br)c2c(N)ncnc21", "value": ">100 µM"}
{"smiles": "CC(=O)O[C@@H]1[C@@H](OC(C)=O)[C@H](C)O[C@@H]2Oc3[nH]c(=O)[nH]c(=O)c3S[C@@H]21", "strain": "LAI", "read by": "RT activity", "value": "100 µM"}
{"smiles": "O=C(CN1c2c(-c3ccccc3)n[nH]c2-c2ccccc2S1(=O)=O)N/N=C/c1ccc(Br)cc1", "value": "13.4 µM"}
{"smiles": "Nc1ncnc2c1ncn2[C@@H]1S[C@H](CO)[C@H]1CO", "strain": "xxBRU", "read by": "RT activity", "value": ">100 µM"}
{"smiles": "CCOC(=O)[C@H](C)NP(=O)(OC[C@H]1O[C@@H](n2ccc3c(N)nc(N)nc32)[C@](C)(F)[C@@H]1O)Oc1ccccc1", "value": ">100 µM"}
{"smiles": "COc1nc(N)nc2c1ncn2[C@H]1CO[C@@H](CO)O1", "strain": "LAI", "read by": "RT activity", "value": "5.1 µM"}
{"smiles": "O=C(CN1c2c(-c3ccccc3)n[nH]c2-c2ccccc2S1(=O)=O)N/N=C/c1cccc([N+](=O)[O-])c1", "value": "30.2 µM"}
{"smiles": "CCCCCC(=O)Nc1nc(N)nc2c1ncn2[C@H]1CO[C@@H](COP(=O)(N[C@@H](C)C(=O)OCC)Oc2ccccc2)O1", "strain": "LAV-1", "read by": "RT activity", "value": "33 µM"}
{"smiles": "C#Cc1cn([C@H]2O[C@H](CO)[C@@H](O)[C@@]2(C)F)c2ncnc(N)c12", "value": ">100 µM"}
{"smiles": "CCN(CC)C(=O)OC[C@H]1CN(C(=O)c2ccccc2)CCN1C(=O)C(=O)c1c[nH]c2nccc(OC)c12", "strain": "LAI", "read by": "RT activity", "value": ">125 µM"}
{"smiles": "COc1cc(OC)cc(C(=O)OCc2nc3ccccc3nc2C)c1", "strain": "BaL", "read by": "RT activity", "value": ">100 µM"}
{"smiles": "COc1ccc(/C=N/NC(=O)CN2c3c(-c4ccccc4)n[nH]c3-c3ccccc3S2(=O)=O)c(OC)c1", "value": "80.6 µM"}
{"smiles": "CN1c2c(-c3ccccc3)nn(CC(=O)N/N=C/c3ccc(Cl)cc3)c2-c2ccccc2S1(=O)=O", "strain": "LAV-1", "read by": "RT activity", "value": ">100 µM"}
{"smiles": "COc1cccc(OC)c1C(=O)OCc1nc2ccccc2nc1C", "strain": "89BZ167", "read by": "RT activity", "value": "71.7 µM"}
{"smiles": "COC(=O)[C@@H](Cc1ccccc1)NP(=O)(OC[C@@H]1OC[C@H](n2cc(C)c(=O)[nH]c2=O)O1)Oc1ccccc1", "strain": "LAI", "changes": "RT-M184V", "read by": "RT activity", "value": "49.9 µM"}
{"smiles": "CN1c2c(-c3ccccc3)nn(CC(=O)N/N=C/c3ccc(Cl)c(Cl)c3)c2-c2ccccc2S1(=O)=O", "strain": "LAV-1", "read by": "RT activity", "value": ">100 µM"}
{"smiles": "Cc1cccc(C(=O)OCc2nc3ccccc3nc2C)c1O", "strain": "89BZ167", "read by": "RT activity", "value": ">100 µM"}
{"smiles": "Nc1ncnc2c1ncn2[C@H]1C[C@@H](CO)C=C1F", "changes": "RT-M184V", "read by": "RT activity", "value": ">100 µM"}
{"smiles": "CCCCCCCC/C=C\\CCCCCCCC(=O)Nc1nc(N)nc2c1ncn2[C@H]1CO[C@@H](COP(=O)(N[C@@H](C)C(=O)OCC)Oc2ccccc2)O1", "strain": "LAV-1", "read by": "RT activity", "value": "2.1 µM"}
{"smiles": "CC(=O)OC[C@H]1O[C@@H]2Oc3c(c(=O)n(C)c(=O)n3C)S[C@@H]2[C@@H](OC(C)=O)[C@H]1OC(C)=O", "strain": "LAI", "read by": "RT activity", "value": "47.7 µM"}
{"smiles": "C=CCc1cc(-c2ncc(O)cn2)ccc1O", "strain": "LAV", "read by": "RT activity", "value": ">100 µM"}
{"smiles": "CC(=O)O[C@H]1[C@@H](OC(C)=O)[C@@H](CO[Si](c2ccccc2)(c2ccccc2)C(C)(C)C)O[C@@H](O[C@H]2[C@H](OC(C)=O)[C@H]3Sc4c(n(C)c(=O)n(C)c4=O)O[C@H]3O[C@@H]2CO[Si](c2ccccc2)(c2ccccc2)C(C)(C)C)[C@@H]1OC(C)=O", "strain": "LAI", "read by": "RT activity", "value": "331 µM"}
{"smiles": "CC(C)(C)OC(=O)N1[C@H](CO)CC(F)(F)[C@@H]1n1cnc2ncnc(N)c21", "strain": "LAI", "value": ">100 µM"}
{"smiles": "Cc1nc2ccccc2nc1COC(=O)c1ccc2ccccc2c1O", "strain": "89BZ167", "read by": "RT activity", "value": ">100 µM"}
{"smiles": "CCOC(=O)[C@H](C)NP(=O)(OC[C@@H]1OC[C@H](n2cnc3c(NC(C)=O)nc(N)nc32)O1)Oc1ccccc1", "strain": "LAV-1", "read by": "RT activity", "value": "93 µM"}

Repeating the final 5 entries:

smiles	strain	changes	read by	value
C=CCc1cc(-c2ncc(O)cn2)ccc1O	LAV		RT activity	>100 µM
CC(=O)O[C@H]1[C@@H](OC(C)=O)[C@@H](CO[Si](c2ccccc2)(c2ccccc2)C(C)(C)C)O[C@@H](O[C@H]2[C@H](OC(C)=O)[C@H]3Sc4c(n(C)c(=O)n(C)c4=O)O[C@H]3O[C@@H]2CO[Si](c2ccccc2)(c2ccccc2)C(C)(C)C)[C@@H]1OC(C)=O	LAI		RT activity	331 µM
CC(C)(C)OC(=O)N1[C@H](CO)CC(F)(F)[C@@H]1n1cnc2ncnc(N)c21	LAI			>100 µM
Cc1nc2ccccc2nc1COC(=O)c1ccc2ccccc2c1O	89BZ167		RT activity	>100 µM
CCOC(=O)[C@H](C)NP(=O)(OC[C@@H]1OC[C@H](n2cnc3c(NC(C)=O)nc(N)nc32)O1)Oc1ccccc1	LAV-1		RT activity	93 µM